These results are taken from article PMC3800186.

This experiment has as its target HIV-1 YU2 gp120 S375A mutant (HIV-1 YU2). Briefly: SPR. In general terms: SPR reads the build-up and loss of mass on a sensor chip optically.

What is called Kd is the concentration at which binding is half-saturated. Consider “Soluble CD4 (from UniProt P01730 26-396) (receptor)”, for which the Kd is 41 nM.
